The source of these data is PMC3295573 (2012).

The chains are these.
B1: LidA(188-580) (domain or fragment)
chain: TSSTSQADKEIQKMLDEYEQAIKRAQENIKKGEELEKKLDKLERQGKDLEDKYKTYEENLEGFEKLLTDSEELSLSEINEKMKAFSKDSEKLTQLMEKHKGDEKTVQSLQREHHDIKAKLANLQVLHDAHTGKKSYVNEKGNPVSSLKDAHLAINKDQEVVEHKGQFYLLQKGQWDAIKNDPAALEKAQKDYSQSKHDLATIKMEALIHKLSLEMEKQLETINDLIMSTDPKENEEATKLLHKHNGLNLKLANLQDMLAVHRKEKSFFNEKGEKVTSLNDAHYVIGKDQQLFNLGGKFYPIHKEQKILEKDGKFYLLKQGEDWESIKDSPEKQKKAEHDFHKLQYETPMTVKKLVHHNKGLETTIHKERIEETKQQLEDNGKEKIEIANNISK

In one assay the target is Rab11 (FL) (human, UniProt P62491 1-216).
The assay “LidA(188-580)” addresses B1.

What is called Kd is the equilibrium constant for the complex coming apart. As for B1, the Kd with Rab11 (FL) is 2500 nM.

B2: Rab20 (FL) (natural protein)
chain: MRKPDSKIVLLGDMNVGKTSLLQRYMERRFPDTVSTVGGAFYLKQWRSYNISIWDTAGREQFHGLGSMYCRGAAAIILTYDVNHRQSLVELEDRFLGLTDTASKDCLFAIVGNKVDLTEEGALAGQEKEECSPNMDAGDRVSPRAPKQVQLEDAVALYKKILKYKMLDEQDVPAAEQMCFETSAKTGYNVDLLFETLFDLVVPMILQQRAERPSHTVDISSHKPPKRTRSGCCA
Turning to B2, the Kd with LidA(188-580) amounted to 160 nM. This counts as sub-micromolar.

B3: Rab9 (FL) (natural protein)
chain: MAGKSSLFKVILLGDGGVGKSSLMNRYVTNKFDTQLFHTIGVEFLNKDLEVDGHFVTMQIWDTAGQERFRSLRTPFYRGSDCCLLTFSVDDSQSFQNLSNWKKEFIYYADVKEPESFPFVILGNKIDISERQVSTEEAQAWCRDNGDYPYFETSAKDATNVAAAFEEAVRRVLATEDRSDHLIQTDTVNLHRKPKPSSSCC
B3 returned a Kd with LidA(188-580) of 220 nM.

B4: Rab4 (FL) (natural protein)
chain: MSQTAMSETYDFLFKFLVIGNAGTGKSCLLHQFIEKKFKDDSNHTIGVEFGSKIINVGGKYVKLQIWDTAGQERFRSVTRSYYRGAAGALLVYDITSRETYNALTNWLTDARMLASQNIVIILCGNKKDLDADREVTFLEASRFAQENELMFLETSALTGENVEEAFVQCARKILNKIESGELDPERMGSGIQYGDAALRQLRSPRRAQAPNAQECGC
B4 yielded a Kd with LidA(188-580) of 250 nM.
